HIV-1 LAI Vif substitutions under APOBEC3G selection

Protein: Vif of HIV-1 LAI (a laboratory-adapted subtype B strain). Residues 12-115 were scanned and are shown below; the first letter is residue 12.
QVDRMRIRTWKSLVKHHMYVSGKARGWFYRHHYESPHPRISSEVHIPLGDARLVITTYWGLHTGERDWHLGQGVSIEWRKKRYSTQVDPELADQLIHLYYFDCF

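Pooled viruses with one designed change each in Vif went through two 72 h rounds in SupT1 cells expressing APOBEC3G. Each of three replicates was sequenced after round two and set against the merged round-one pool. Changes do not touch integrase, since the pol overlap was removed.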

Values are log2 enrichment relative to wild type (0); lower means weaker defence against APOBEC3G and poorer growth. Substitutions are written as wild-type residue, site number, new residue. This list holds changes to glutamine only. The median of three replicates is given, with the replicates in brackets. Input reads are the counts in the merged round-one pool, before selection. The authors note that some positive scores may be noise, and some enriched variants failed when tested singly. The scan is noisy: the rank correlation of replicates is about 0.4 to 0.65, and variants with under about 50 input reads tend to read too high. Some changes are missing from the data or left out.

For V13Q (input reads 668) the result was -0.84 (-0.48 / -2.31 / -0.84). R15Q (input reads 1366) read -2.29 (-2.29 / -0.92 / -2.88). R17Q (input reads 438) read -2.04 (-2.04 / -4.07 / -1.73). R19Q (input reads 575) read -0.79 (-0.79 / -2.26 / 2.68). T20Q (input reads 1255) gave -0.31 (-0.36 / -0.31 / 1.01). For W21Q (input reads 263) the result was 0.81 (3.98 / -1.80 / 0.81). With K22Q (input reads 51) the assay gave 0.18 (0.12 / 4.47 / 0.18). With S23Q (input reads 1647) the assay gave 0.36 (-1.15 / 0.36 / 0.40).

L24Q (input reads 529) gave -1.37 (-1.55 / 1.59 / -1.37). For V25Q (input reads 30) the result was -0.70 (-0.70 / -2.00 / 2.73). For H27Q (input reads 233) the result was -1.75 (-1.75 / -1.52 / -2.89). For H28Q (input reads 394) the result was 2.37 (2.37 / 2.68 / -0.33). With M29Q (input reads 135) the assay gave 1.84 (1.84 / 4.12 / 0.14). With Y30Q (input reads 98) the assay gave 1.37 (1.37 / 3.72 / 0.10). V31Q (input reads 705) gave -2.73 (-3.33 / 0.26 / -2.73). S32Q (input reads 57) read -0.02 (-0.02 / 4.18 / -0.82).

With G33Q (input reads 2098) the assay gave -2.18 (-2.38 / -1.55 / -2.18). K34Q (input reads 422) read -1.31 (-0.30 / -2.07 / -1.31). For A35Q (input reads 604) the result was -1.86 (-1.86 / -3.87 / -1.21). For R36Q (input reads 201) the result was 2.58 (4.24 / 2.58 / 0.13). G37Q (input reads 486) gave -0.93 (-0.93 / 0.96 / -1.09). For F39Q (input reads 547) the result was -1.33 (-1.33 / -1.71 / 1.11). With Y40Q (input reads 27) the assay gave -2.25 (-2.25 / -4.41 / 0.68). With R41Q (input reads 86) the assay gave 0.41 (4.58 / -0.75 / 0.41).

With H42Q (input reads 1456) the assay gave -1.40 (-1.40 / -3.48 / -0.36). For H43Q (input reads 265) the result was -1.76 (-1.50 / -2.37 / -1.76). Y44Q (input reads 223) gave -4.00 (-1.24 / -4.00 / -4.05). S46Q (input reads 520) gave -2.92 (-3.52 / -2.92 / -2.33). P47Q (input reads 447) read -3.17 (-1.92 / -3.94 / -3.17). P49Q (input reads 501) gave -1.56 (-1.56 / 2.45 / -1.74). With I51Q (input reads 220) the assay gave -0.40 (3.80 / -2.02 / -0.40). S52Q (input reads 471) read -3.54 (-0.75 / -5.08 / -3.54).

S53Q (input reads 741) gave -1.20 (2.70 / -1.20 / -1.92). V55Q (input reads 342) read -3.44 (-2.08 / -5.47 / -3.44). With I57Q (input reads 86) the assay gave -0.79 (4.80 / -1.73 / -0.79). L59Q (input reads 902) gave -1.57 (-1.57 / 0.57 / -2.09). For G60Q (input reads 203) the result was -2.75 (-5.03 / -2.75 / -2.33). D61Q (input reads 440) read -2.98 (-2.98 / -4.46 / -2.36). With A62Q (input reads 1329) the assay gave -3.00 (-3.00 / -3.61 / -2.81). V65Q (input reads 187) read -3.75 (-1.01 / -4.10 / -3.75).

I66Q (input reads 447) gave -2.26 (-2.26 / -0.73 / -3.80). T67Q (input reads 56) gave 2.90 (2.49 / 2.90 / 5.73). T68Q (input reads 1592) gave -1.50 (-2.13 / -1.50 / 0.29). W70Q (input reads 391) read -3.93 (-3.16 / -3.93 / -4.86). For G71Q (input reads 48) the result was -1.85 (2.00 / -4.98 / -1.85). L72Q (input reads 453) gave -2.27 (-2.27 / -2.30 / -1.44). H73Q (input reads 373) gave -1.48 (-1.48 / -2.56 / -0.94). With G75Q (input reads 387) the assay gave -2.03 (0.44 / -2.22 / -2.03).

With E76Q (input reads 430) the assay gave -3.13 (-0.34 / -3.87 / -3.13). R77Q (input reads 39) read 2.34 (1.85 / 5.27 / 2.34). D78Q (input reads 809) read -2.03 (-1.15 / -3.66 / -2.03). For H80Q (input reads 191) the result was 0.56 (0.56 / -1.27 / 6.19). L81Q (input reads 383) read -3.19 (-3.29 / -1.92 / -3.19). With G82Q (input reads 441) the assay gave -2.44 (-2.44 / -3.30 / 1.93). With V85Q (input reads 1022) the assay gave -1.30 (-1.00 / -3.08 / -1.30). S86Q (input reads 935) read -4.03 (-4.03 / -4.98 / -3.00).

I87Q (input reads 42) gave 0.66 (0.39 / 5.66 / 0.66). E88Q (input reads 1122) read -3.58 (-3.58 / -0.91 / -3.71). R90Q (input reads 1041) gave -3.46 (-1.21 / -3.74 / -3.46). K91Q (input reads 395) read -2.44 (-2.83 / -2.44 / -2.18). K92Q (input reads 84) read 0.35 (0.35 / 3.05 / -0.12). T96Q (input reads 431) gave -2.46 (-4.52 / 1.39 / -2.46). With V98Q (input reads 653) the assay gave -3.25 (-3.25 / -2.95 / -3.48). D99Q (input reads 114) read -2.34 (-1.88 / -3.40 / -2.34).

E101Q (input reads 963) read -2.28 (-1.09 / -2.28 / -2.61). A103Q (input reads 18) gave 3.81 (3.81 / 5.19 / -0.44). I107Q (input reads 37) gave 3.37 (3.37 / 3.49 / -0.24). With H108Q (input reads 297) the assay gave -2.56 (-1.68 / -4.41 / -2.56). Y110Q (input reads 237) read -2.53 (-2.07 / -2.61 / -2.53). Y111Q (input reads 349) gave -2.99 (-2.99 / -3.73 / -2.35). F112Q (input reads 17) read -1.95 (-1.47 / -3.50 / -1.95). D113Q (input reads 369) read -2.42 (-2.42 / 2.25 / -2.67).

For F115Q (input reads 217) the result was -1.03 (-1.03 / -3.23 / -0.23).

The first 6 entries again:

V13Q (input reads 668) gave -0.84 (-0.48 / -2.31 / -0.84).
R15Q (input reads 1366) gave -2.29 (-2.29 / -0.92 / -2.88).
R17Q (input reads 438) gave -2.04 (-2.04 / -4.07 / -1.73).
R19Q (input reads 575) gave -0.79 (-0.79 / -2.26 / 2.68).
T20Q (input reads 1255) gave -0.31 (-0.36 / -0.31 / 1.01).
W21Q (input reads 263) gave 0.81 (3.98 / -1.80 / 0.81).

Reference: Langley et al. 2025, preprint, doi:10.1101/2025.10.20.683452.